Measured values from several laboratories, pooled; numbers as filed in NIAID ChemDB.

Common to all: tests in culture; organism: HIV-1; read-out: EC50

Conditions beyond the fields shown may differ between rows. ECn: concentration that inhibits the pathogen or its effect by n%. Blank or dashed fields: not listed here.

CCOCn1c(Cc2ccccc2)c(C#N)c(=O)n(COCC)c1=O ; changes: RT-Y181C ; result: >100 µM
CC(C)c1c(CC2CCCCC2)nc(SCc2ccccc2)[nH]c1=O ; cells: C8166 ; result: 0.000088 µM
O=c1[nH]c(SCc2cn[nH]n2)nc(-c2ccc(F)cc2)c1Cl ; strain: IIIB ; result: 0.69 µg/mL
COc1cc(-c2ccc(N=Nc3ccc4c(S(=O)(=O)O)cc(S(=O)(=O)O)c(N)c4c3O)c(OC)c2)ccc1N=Nc1ccc2c(S(=O)(=O)O)cc(S(=O)(=O)O)c(N)c2c1O ; cells: CEM ; result: 7 µM
CCOCn1c(Cc2ccccc2)c(C#N)c(=O)[nH]c1=O ; changes: RT-Y181C ; result: >100 µM
COC(=O)C(C)NP(=O)(OC[C@H]1S[C@H](n2cc(F)c(=O)[nH]c2=O)CC1O)Oc1ccccc1 ; cells: CEM + CEM TK- ; result: >100 µM
CCC(O)c1cnc(Nc2ccc(C#N)cc2)nc1Nc1c(C)cc(/C=C/C#N)cc1C ; cells: MT-4 ; strain: Y181C ; result: 0.06166 µM
CCOC(NC(=S)Nc1ccccn1)C(=O)c1ccc(Cl)cc1 ; cells: MT-4 ; strain: IIIB ; result: 69.48 µM
COCc1nc(Nc2ccc(C#N)cc2)nc(Nc2c(C)cc(/C=C/C#N)cc2C)c1C(=O)N1CCCC(C(N)=O)C1 ; cells: MT4 CMV-EGFP ; strain: MDR ; result: 2.29 µM
[N-]=[N+]=N[C@@]1(CO)CO[C@H](n2cnc3c(N)ncnc32)C1 ; cells: MT-4 ; result: >100 µg/mL
C=C(C)[C@@H]1CC[C@]2(CNCCC(=O)N3CCn4cc(C(F)(F)F)cc4C3)CC[C@]3(C)[C@H](CC[C@@H]4[C@@]5(C)CC=C(c6ccc(C(=O)O)cc6)C(C)(C)[C@@H]5CC[C@]43C)[C@@H]12 ; cells: MT-2 ; strain: NL4-3 ; result: <0.1 µM
[N-]=[N+]=N[C@@]1(CO)COC(n2ccc(N)nc2=O)C1 ; cells: MT-4 ; result: >100 µg/mL
O=[N+]([O-])c1ccc(/C=C/c2ccc(N=Nc3ccc(/C=C/c4ccc([N+](=O)[O-])cc4S(=O)(=O)O)c(S(=O)(=O)O)c3)cc2S(=O)(=O)O)c(S(=O)(=O)O)c1 ; cells: PBMC ; strain: LAV ; result: 0.002 µM
O=c1[nH]c(SCc2cn[nH]n2)nc(-c2ccc(I)cc2)c1Cl ; strain: IIIB ; result: 0.9 µg/mL
O=C1c2sc(-c3ccccc3)cc2N(COCCO)S(=O)(=O)N1Cc1ccccc1 ; cells: CEM ; result: >400 µg/mL
Cc1cn(N2CC[C@@H](CO)C2)c(=O)[nH]c1=O ; cells: MT-4 ; strain: RF ; result: >100 µg/mL
C[C@]1(Cn2cnc3c(=O)[nH]c(N)nc32)[C@@H](COCP(=O)(O)O)C1(F)F ; cells: CEM ; strain: RF ; result: 2.4 µM
CC(=O)Nc1ccc(C=Cc2ccc(NC(=O)Nc3ccc(C=Cc4ccc(NC(C)=O)cc4S(=O)(=O)O)c(S(=O)(=O)O)c3)cc2S(=O)(=O)O)c(S(=O)(=O)O)c1 ; cells: CEM ; result: 4 µM
Nc1ccn(C2C[C@](N)(CO)CO2)c(=O)n1 ; cells: MT-4 ; result: >100 µg/mL
O=C(O)c1cn(-c2ccccc2)c2ccc(Cc3cccc(Cl)c3F)c(O)c2c1=O ; cells: C8166 ; strain: IIIB ; result: 0.31 µM
COCc1nc(Nc2ccc(C#N)cc2)nc(Nc2c(C)cc(/C=C/C#N)cc2C)c1C(=O)N1CCN(CCO)CC1 ; cells: MT4 CMV-EGFP ; strain: IIIB ; result: 0.0372 µM
CC(C)C#CC1(C(C)C)NS(=O)(=O)Nc2ccc(Cl)cc21 ; cells: MT-2 ; strain: RF ; result: <0.643 µM
C=C(C)[C@@H]1CC[C@]2(NCCN(C)C)CC[C@]3(C)[C@H](CC[C@@H]4[C@@]5(C)CC=C(c6ccc(C(=O)O)cc6)C(C)(C)[C@@H]5CC[C@]43C)[C@@H]12 ; cells: MT-2 ; strain: NL4-3 ; result: <0.1 µM
CC(C)C#CC1(C2CC2)NS(=O)(=O)Nc2ccc(Cl)cc21 ; cells: MT-2 ; strain: RF ; result: <0.182 µM
Nc1nc2c(ncn2COCCO)c(=O)[nH]1 ; cells: CEM ; result: >400 µg/mL
COCc1nc(Nc2ccc(C#N)cc2)nc(Nc2c(C)cc(/C=C/C#N)cc2C)c1C(=O)NCCc1cccs1 ; cells: MT4 CMV-EGFP ; strain: K103N + Y181C ; result: 0.0912 µM
N#Cc1cc(Cl)cc(Oc2c(Br)ccc(CC(=O)Nc3ccc(S(N)(=O)=O)cc3Cl)c2F)c1 ; changes: K103N/Y181C ; cells: MT-4 ; result: 0.0012 µM
CC(=O)OCCOCCN1C(=O)c2cc(-c3ccccc3)sc2N(Cc2ccccc2)S1(=O)=O ; cells: CEM ; result: >400 µg/mL
Cc1cc(/C=C/C#N)cc(C)c1Nc1nc(Nc2ccc(C#N)cc2)ncc1C(O)c1scnc1Br ; cells: MT-4 ; strain: PSI (IIIB) ; result: 550 µM
O=c1[nH]c(=O)n([C@H]2C[C@H](O)[C@@H](CO)O2)cc1F ; cells: CEM ; result: 0.038 µM
Nc1nc2c(ncn2[C@H]2C=C[C@@H](CO)C2)c(=O)[nH]1 ; cells: MT-2 ; result: 0.4 µM
CCC#CC1(C(C)C)NS(=O)(=O)Nc2ccc(Cl)cc21 ; cells: MT-2 ; strain: RF ; result: <0.691 µM
CC(C)c1c(CC2CCCCC2)nc(SCC(=O)c2ccccc2O)[nH]c1=O ; cells: C8166 ; result: 0.00195 µM
Cc1cc(-c2ccc(N=Nc3ccc4c(S(=O)(=O)O)cc(S(=O)(=O)O)c(N)c4c3O)c(C)c2)ccc1N=Nc1ccc2c(S(=O)(=O)O)cc(S(=O)(=O)O)c(N)c2c1O ; cells: CEM ; result: 7 µM
CCc1c(Cc2ccccc2)nc(SCC(=O)c2ccccc2)[nH]c1=O ; cells: C8166 ; result: 0.08015 µM
Nc1ncnc2c1ncn2[C@H]1C[C@H]2OC[C@@H](O)[C@H]2O1 ; cells: MT-4 ; result: >100 µM
Nc1ncnc2c1ncn2[C@@H]1CC[C@](F)(CO)C1 ; cells: PBMC ; result: >100 µM
Cc1cc(/C=C/C#N)cc(C)c1Nc1nc(Nc2ccc(C#N)cc2)ncc1C(O)C(C)C ; cells: MT-4 ; strain: Y181C ; result: 0.219 µM
CC(C)c1c(Cc2ccccc2)nc(SCC(=O)c2ccccc2)[nH]c1=O ; cells: C8166 ; result: 0.01401 µM
O=C1c2cc(-c3ccccc3)sc2N(Cc2ccccc2)S(=O)(=O)N1COCc1ccccc1 ; cells: CEM ; result: >400 µg/mL
Nc1nc2c(ncn2[C@H]2CC[C@@](F)(CO)C2)c(=O)[nH]1 ; cells: PBMC ; result: 32.3 µM
COCCOC(O)c1cnc(Nc2ccc(C#N)cc2)nc1Nc1c(C)cc(/C=C/C#N)cc1C ; cells: MT-4 ; strain: PSI (IIIB) ; result: 151 µM
COCc1nc(Nc2ccc(C#N)cc2)nc(Nc2c(C)cc(/C=C/C#N)cc2C)c1C(=O)NCc1cccs1 ; cells: MT4 CMV-EGFP ; strain: IIIB ; result: 0.00589 µM
CCC[C@@H]1O[C@](C#CC2CC2)(C(F)(F)F)c2cc(Cl)ccc2NC1=O ; cells: MT-2 ; strain: RF ; result: <0.0172 µM
C=Cc1c(Cc2ccccc2)n(COCC)c(=O)[nH]c1=O ; cells: MT-4 ; strain: IIIB ; result: 0.07 µM
COCc1nc(Nc2ccc(C#N)cc2)nc(Nc2c(C)cc(/C=C/C#N)cc2C)c1C(=O)NCCNC(C)=O ; cells: MT4 CMV-EGFP ; strain: K103N+Y101C ; result: 0.0209 µM
C[C@@H]1O[C@](/C=C/C2CC2)(C(F)(F)F)c2cc(Cl)ccc2NC1=O ; cells: MT-2 ; strain: RF ; result: <0.0025 µM
C/C=C\COc1cc(NC(=S)OC(C)C)ccc1Cl ; changes: RT-K101E ; cells: CEM ; strain: IIIB ; result: 0.033 µM
Cc1cc(/C=C/C#N)cc(C)c1Nc1nc(Nc2ccc(C#N)cc2)ncc1C(O)n1ccnc1 ; cells: MT-4 ; strain: L100I + K103N ; result: 0.0389 µM
CC[C@@H]1O[C@](/C=C/C2CC2)(C(F)(F)F)c2cc(Cl)ccc2NC1=O ; cells: MT-2 ; strain: RF ; result: <0.0078 µM
O=C(c1ccccc1Cl)C(O)NC(=S)Nc1ccccn1 ; cells: MT-4 ; strain: IIIB ; result: 118 µM
CNC(O)c1cnc(Nc2ccc(C#N)cc2)nc1Nc1c(C)cc(/C=C/C#N)cc1C ; cells: MT-4 ; strain: IIIB ; result: 0.01047 µM
Nc1ccc(N=Nc2ccc(C=Cc3ccc(N=Nc4ccc(N)c5ccc(S(=O)(=O)O)cc45)cc3S(=O)(=O)O)c(S(=O)(=O)O)c2)c2cc(S(=O)(=O)O)ccc12 ; cells: CEM ; result: 4 µM
Nc1ncnc2c1ncn2[C@H]1CC[C@@](F)(CO)C1 ; cells: PBMC ; result: 27.6 µM
O=C1c2sc(-c3ccccc3)cc2NS(=O)(=O)N1COCCO ; cells: CEM ; result: >400 µg/mL
C[C@H]1O[C@](C#CC2CC2)(C(F)(F)F)c2cc(F)ccc2NC1=O ; cells: MT-2 ; strain: RF ; result: <0.194 µM
COCc1nc(Nc2ccc(C#N)cc2)nc(Nc2c(C)cc(/C=C/C#N)cc2C)c1C(=O)NCCc1ccccn1 ; cells: MT4 CMV-EGFP ; strain: K103N+Y101C ; result: 0.0214 µM
Cc1c(-c2c([C@H](OC(C)(C)C)C(=O)O)cnc3ccccc23)cc(F)c2c1CCCO2 ; cells: MT-4 ; result: 0.018 µM
COCc1nc(Nc2ccc(C#N)cc2)nc(Nc2c(C)cc(/C=C/C#N)cc2C)c1C(=O)NCCC#N ; cells: MT4 CMV-EGFP ; strain: MDR ; result: 0.0933 µM
C[C@]1(Cn2cnc3c(=O)[nH]c(N)nc32)[C@H](COCP(=O)(O)O)C1(F)F ; cells: CEM ; strain: RF ; result: 80 µM
O=C1Nc2ccc(F)c(F)c2[C@@](C#CC2CC2)(C(F)(F)F)N1 ; cells: MT-2 ; strain: RF ; result: <0.0013 µM
CCc1c(CC2CCCCC2)nc(SCC(=O)c2ccc(OC)cc2)[nH]c1=O ; cells: C8166 ; result: 0.000217 µM
Cc1cn([C@H]2C=C[C@@H](CO)O2)c(=O)[nH]c1=O ; cells: MT-4 ; result: 0.28 µM

6 of the rows above, restated:

smiles,changes,cells,strain,result
CCC[C@@H]1O[C@](C#CC2CC2)(C(F)(F)F)c2cc(Cl)ccc2NC1=O,,MT-2,RF,<0.0172 µM
Nc1nc2c(ncn2[C@H]2C=C[C@@H](CO)C2)c(=O)[nH]1,,MT-2,,0.4 µM
Cc1c(-c2c([C@H](OC(C)(C)C)C(=O)O)cnc3ccccc23)cc(F)c2c1CCCO2,,MT-4,,0.018 µM
CCOCn1c(Cc2ccccc2)c(C#N)c(=O)n(COCC)c1=O,RT-Y181C,,,>100 µM
O=C(c1ccccc1Cl)C(O)NC(=S)Nc1ccccn1,,MT-4,IIIB,118 µM
O=C(O)c1cn(-c2ccccc2)c2ccc(Cc3cccc(Cl)c3F)c(O)c2c1=O,,C8166,IIIB,0.31 µM